Results: patent US20150196025A1, “BIOACTIVE HEME-HALOPEROXIDASE COMPOSITIONS AND METHODS OF THEIR USE” (Exoxemis, Inc., priority 2014, published 2015)

System: S. aureus
Assay: Microbicidal plate assay, pEPO with amine additives, aged 0 or 5 minutes with H2O2 (Example 7)
Type: cell-based, Staphylococcus aureus
Conditions: FIG. 7, 10 ug/mL pEPO, additive 3 mM, 2 mM NaBr

## OCCN(CCO)CCO
0.89 mM H2O2
  microbicidal activity, Reaction 2 (aged 5 minutes with H2O2): only formulations comprising pEPO and ethanolamine or diethanolamine maintained microbicidal activity
0.89 mM H2O2, one minute, 10^8 cfu/mL
  microbicidal activity, Reaction 1 (aged 0 min): no microbicidal activity
